# Measurements reported in PubChem BioAssay AID898 (University of Pittsburgh Molecular Library Screening Center, 2007).
# The entries are a selection whose mix differs from that of the whole data set. Active and inactive are the calls of the source. Rule as the data show it: active = inhibition above about 50%; inactive = the rest.
# Test system: YopH tyrosine phosphatase [Yersinia enterocolitica]
# Test: inhibition of Yersinia YopH phosphatase – biochemical, fluorescence Ex485/Em525, primary screen (AID 898)
# Details: stronger effect = higher value, concentration not given here
row,SMILES,inhibition
1,CN1CCCC(OC(=O)C(c2ccccc2)c2ccccc2)C1 (stereo not given),inactive: -25.6%
2,CN(C)CCOC(=O)C(O)(c1ccccc1)C1CCCC1 (stereo not given),inactive: -9.89%
3,COc1ccc(OP(C)(=O)Nc2ccccn2)cc1 (stereo not given),inactive: -8.72%
4,O=C(NC(Sc1ccncn1)C(Cl)(Cl)Cl)c1ccccc1 (stereo not given),inactive: -18.1%
5,Cc1c2non([O-])c-2c(C)[n+](=O)[n+]1[O-],inactive: -25.6%
6,Oc1ccccc1CNc1ccccn1,inactive: -21.9%
7,Cc1c(NP(C)(=O)Oc2ccc(C(C)C)cc2)c(=O)n(-c2ccccc2)n1C (stereo not given),inactive: -49.3%
8,CC(C)CC(=O)NC(Sc1ccc(Cl)cc1)C(Cl)(Cl)Cl (stereo not given),inactive: -38.7%
9,CCc1ccc(OP(C)(=O)O)cc1,inactive: 1.15%
10,COc1ccccc1OP(C)(=O)Nc1ccc(C)cc1C (stereo not given),inactive: -26.6%
11,CP(=O)(Nc1ccccn1)Oc1ccccc1 (stereo not given),inactive: -29.1%
12,COc1ccc(OP(C)(=O)Nc2ccccc2Br)cc1 (stereo not given),inactive: -0.59%
13,COc1ccccc1OP(C)(=O)Nc1ccc(C)c(C)c1 (stereo not given),inactive: -52.9%
14,Cc1cc(SC(NC(=O)c2ccc(F)cc2)C(Cl)(Cl)Cl)ncn1 (stereo not given),inactive: -22%
15,CCOP(=O)(Nc1ccccc1)OCC,inactive: 6.46%
16,Cc1nc2ccc3ccccc3c2o1.O=[N+]([O-])c1cc([N+](=O)[O-])c(O)c([N+](=O)[O-])c1,inactive: -28.1%
17,CCN(N=Nc1nonc1N)c1nonc1N,inactive: -55.9%
18,CP(=O)(OC12CC3CC(CC(C3)C1)C2)OC12CC3CC(CC(C3)C1)C2,inactive: 0.5%
19,CCOC(=O)c1ccc(NP(C)(=O)Oc2ccc(Cl)cc2)cc1 (stereo not given),inactive: -20.3%
20,COc1ccc(OP(C)(=O)Nc2ccc(Br)cc2)cc1 (stereo not given),inactive: -20.8%
21,CCN(CC)CC(O)COC(=O)C(O)(c1ccccc1)C1CCCCC1 (stereo not given),inactive: -42.1%
22,CCc1nc2c(n1)c1c(non1O)c1c2no[n+]1[O-],inactive: -32.1%

row,SMILES,inhibition
1,CP(=O)(Oc1ccccc1)N1CCOC1=O (stereo not given),inactive: -31.2%
2,O=[N+]([O-])c1cccc2n[nH]nc12,inactive: -4.33%
3,CC(=O)N1C2C3N(C(C)=O)C1C1N(C(C)=O)C(C(N1C(C)=O)N3C(C)=O)N2C(C)=O,inactive: 2.38%
4,COc1ccccc1OP(C)(=O)Nc1c(C)n(C)n(-c2ccccc2)c1=O (stereo not given),inactive: -1.42%
5,CP(=O)(Nc1ccc(Cl)cc1)Oc1ccc(F)cc1 (stereo not given),inactive: 5.84%
6,CC(C)(C)c1ccc(OP(C)(=O)O)cc1,inactive: -25.2%
7,CC1CCN(C(=O)Oc2c(Cl)cc(Cl)c3cccnc23)CC1,inactive: 5.93%
8,CN(C)C(=O)OCCc1n(C)cc[n+]1C,inactive: -32.8%
9,CC(C)C(=O)NC(Sc1ccccc1)C(Cl)(Cl)Cl (stereo not given),inactive: -38.2%
10,O=P(Nc1nccs1)(c1ccccc1)c1ccccc1,inactive: 13.7%
11,c1nnnn1CCn1cnnn1,inactive: -26%
12,CCOP(C)(=S)SCC(=O)NC(C)(CC)C(=O)O (stereo not given),inactive: -27.8%
13,CP(=O)(Nc1ccc2c(c1)OCCO2)Oc1ccccc1 (stereo not given),inactive: -3.46%
14,Cc1ccccc1NP(C)(=O)Nc1ccccc1C,inactive: -50%
15,COc1ccc(OP(C)(=O)Nc2cccc(Br)c2)cc1 (stereo not given),inactive: -27.9%
16,CN(C)CCOC(=O)C(O)(c1ccccc1)C1CCCCC1 (stereo not given),inactive: -6.6%
17,CC(=O)NC(SC(=S)N(C)C)C(Cl)(Cl)Cl (stereo not given),inactive: -23.4%
18,O=C(OC1CN2CCC1CC2)c1cccc(Cl)c1 (stereo not given),inactive: -32.3%
19,C(Cc1nn[nH]n1)Cc1nn[nH]n1,inactive: -27.6%
20,CCOC(=O)NC(Sc1ccccc1)C(Cl)(Cl)Cl (stereo not given),inactive: 8.08%
21,CCOC(=O)c1ccc(NP(C)(=O)Oc2ccc(F)cc2)cc1 (stereo not given),inactive: -25.8%
22,CCN(CC)CCCOC(=O)C(O)(c1ccccc1)C1CCCCC1 (stereo not given),inactive: -0.26%

row,SMILES,inhibition
1,CCC(=O)N1C2C3N(C(=O)CC)C1C1N(C(=O)CC)C(C(N1C(=O)CC)N3C(=O)CC)N2C(=O)CC,inactive: 7.44%
2,CC(=O)NC(SC(=S)N(CC(C)C)CC(C)C)C(Cl)(Cl)Cl (stereo not given),inactive: -14.9%
3,COC(=O)c1cc2c(s1)N=C(c1ccccc1)N(C)P2(=O)N1CCOCC1 (stereo not given),inactive: -30.4%
4,CP(=O)(Nc1ccccc1)Oc1ccc(F)cc1 (stereo not given),inactive: -13.2%
5,O=P1(Nc2nc3ccc(Cl)cc3s2)COc2ccccc2O1 (stereo not given),inactive: -36.5%
6,CC(C)c1ccc(OP(C)(=O)Nc2ccc(SC(F)(F)F)cc2)cc1 (stereo not given),inactive: -16.1%
7,CP(=O)(Nc1ccccc1F)Oc1ccccc1 (stereo not given),inactive: -45.8%
8,O=C(OCCN1CCN(CCOCc2ccccc2)CC1)C(O)(c1ccccc1)c1ccccc1,inactive: -24.4%
9,Cc1cc(C)cc(OP(C)(=O)Nc2ccc(C)cc2C)c1 (stereo not given),inactive: -6.44%
10,Cc1cccc(OCC(=O)OC2CN3CCC2CC3)c1 (stereo not given),inactive: -5.53%
11,CCOC(=O)c1ccc(NP(C)(=O)Oc2cc(C)cc(C)c2)cc1 (stereo not given),inactive: -17.9%
12,Cc1ccc(NCCc2c([N+](=O)[O-])cc([N+](=O)[O-])cc2[N+](=O)[O-])cc1,inactive: -22.6%
13,Cc1cc(C)cc(OP(C)(=O)Nc2ccccn2)c1 (stereo not given),inactive: -33.3%
14,Cc1ccc(C)c(NP(C)(=O)Oc2ccccc2)c1 (stereo not given),inactive: -18.5%
15,CCOP(=O)(Nc1cccc2ccccc12)OCC,inactive: -23.5%
16,O=P(Nc1nccs1)(c1ccccc1)c1nc2ccccc2s1 (stereo not given),inactive: -30.2%
17,CCOP1(=S)c2c(C)nn(CCC#N)c2N=C(c2ccccc2F)N1C (stereo not given),inactive: 6.92%
18,CCOP1(=S)c2c(C)nn(CCC#N)c2N=C(c2ccc(F)cc2)N1C (stereo not given),inactive: 3.69%
19,CC1=NCCc2c1[nH]c1ccccc21.O=[N+]([O-])c1cc([N+](=O)[O-])c(O)c([N+](=O)[O-])c1,inactive: -24.1%
20,O=[N+]([O-])c1ccc2c(c1)nnn2O,inactive: -33.3%
21,Cc1nn(-c2ccccc2)c2c1P(=O)(N1CCOCC1)N(C)C(c1ccccc1)=N2 (stereo not given),inactive: -55.2%
